These results are taken from patent US20140017269A1 (CHILDREN S HOSPITAL MEDICAL CENTER, published 2014).

This data set deals with the molecule itself. The data set is described as follows: gel filtration and EM; self-association. (In general: Size exclusion chromatography separates by hydrodynamic size, large species first.)

B1: GST-NoV P polypeptide fusion protein (GST-NoV P^-) (other)
chain: not shown
notes: Assembles with itself into linear complexes of varying size
B1: the binding result was “binds”.
